Anti-infective test results gathered from many reports (values: NIAID ChemDB through PubChem).

Common to all: tests on isolated targets; species: HIV-1; protein: Reverse transcriptase; read-out: IC50

Two numbers with a dash give a range or band.

smiles | strain or isolate | mutations | read by | result
COc1cccc(-c2nnc3c4ccccc4c(N4CCc5ccccc5C4)nn23)c1 | IIIB | - | RT activity / fluorescence | 88.3 µM
NS(=O)(=O)c1ccc(NC(=O)CSc2nnc(C(F)F)n2-c2ccc3c4c(cccc24)CC3)c(Cl)c1 | - | RT-Y188L | nucleotide incorporation / radiometric | >0.1 µM
CC(C)Nc1cccnc1N1CCN(C(=O)c2cc3cc(N=CN(C)C)ccc3[nH]2)CC1 | - | - | nucleotide incorporation | <100 µM
O=C(CSc1nnnn1-c1ccc(C2CC2)cc1Cl)Nc1ccc(C#CC2(CN3CCC(O)CC3)CC2)cc1Cl | - | RT-K103 Y181C | PicoGreen / fluorescence | <1 µM
Cc1nnc2c3ccccc3c(N3CCc4cc(O)c(O)cc4C3)nn12 | IIIB | - | RT activity / fluorescence | 1.71 µM
CCc1ccc(-n2c(C)nnc2SCC(=O)Nc2ccc(S(N)(=O)=O)cc2C)c2ccccc12 | - | RT-Y181C | nucleotide incorporation / radiometric | >0.1 µM
CC(C)(C)c1ccc(-n2nnnc2SCC(=O)Nc2ccc(OCC(=O)NCCc3ccncc3)cc2Cl)c(Cl)c1 | - | RT-K103 Y181C | PicoGreen / fluorescence | <1 µM
CCN1c2ncc(CCc3cccc(N)c3)cc2C(=O)N(C)c2ccc(Cl)nc21 | - | RT-Y181C | nucleotide incorporation / radiometric | <1 µM
CCN1c2ncccc2C(=O)N(C)c2ccc(-c3c[nH]c(C(N)=O)c3)nc21 | - | RT-Y188L | nucleotide incorporation / radiometric | >1 µM
CC(C)C[C@H](NC(=O)c1ccc(NC(=O)CSc2nnc(Br)n2-c2ccc(C3CC3)c3ccccc23)c(Cl)c1)C(=O)O | - | RT-Y188L | nucleotide incorporation / radiometric | 0.05–0.1 µM
CCCC#Cc1ccc(NC(=O)CSc2nnnn2-c2ccc(C(C)(C)C)cc2Cl)c(Cl)c1 | - | RT-K103 Y181C | PicoGreen / fluorescence | <1 µM
CN(C)c1ccc2c(c1)CN(c1nn3c(C4CC4)nnc3c3ccccc13)CC2 | IIIB | - | RT activity / fluorescence | 0.06 µM
CCN1c2ncccc2C(=O)N(C)c2ccc(-c3c[nH]c(C#N)c3)nc21 | - | RT-Y188L | nucleotide incorporation / radiometric | <1 µM
CC(C)(C)c1ccc(-n2nnnc2SCC(=O)Nc2ccc(OCC(=O)Nc3cccc(O)c3)cc2Cl)c(Cl)c1 | WT | - | PicoGreen / fluorescence | <1 µM
CC(C)Nc1cccnc1N1CCN(C(=O)c2ccc[nH]2)CC1 | - | - | nucleotide incorporation | <100 µM
CCN1c2ncccc2C(=O)N(C)c2ccc(-c3cn[nH]c3C)nc21 | WT | - | nucleotide incorporation / radiometric | <1 µM
O=C(CSc1nnc(Br)n1-c1ccc(C2CC2)c2ccccc12)Nc1ccc(C(=O)O)cc1Cl | - | RT-Y188L | nucleotide incorporation / radiometric | >0.1 µM
CCC(CC)Nc1cccnc1N1CCN(C(=O)c2cc3ccccc3[nH]2)CC1 | - | - | nucleotide incorporation | <100 µM
COc1ccc2c(c1)CCN(c1nn3c(C)nnc3c3ccccc13)C2 | IIIB | - | RT activity / fluorescence | 4.11 µM
Cc1ccc(-n2c(SCC(=O)Nc3ccc(C(=O)O)cc3Cl)nnc2C(F)F)c2c1CCCC2 | - | - | nucleotide incorporation / radiometric | <0.05 µM
CC(C)Nc1cccnc1N1CCN(C(=O)c2cc3ccc(C=O)cc3[nH]2)CC1 | - | - | nucleotide incorporation | <100 µM
O=C(CSc1nnnn1-c1ccc(C(F)(F)F)cc1Cl)Nc1ccc(-c2ccc(OCCN3CCCCC3)cc2)cc1Cl | - | RT-K103 Y181C | PicoGreen / fluorescence | <1 µM
CN1C(=O)c2cccnc2N(C2CC2)c2nc(-c3cc[nH]c3)ccc21 | - | RT-Y188L | nucleotide incorporation / radiometric | <1 µM
O=C(CSc1nnc(Br)n1-c1cccc2c(OCC3CC3)cccc12)Nc1ccc(C(=O)O)cc1Cl | - | RT-Y181C | nucleotide incorporation / radiometric | >0.1 µM
CC(C)=CCN1Cc2cccc3[nH]c(=S)n(c23)C[C@@H]1C | - | RT-Y181C | nucleotide incorporation | 6.12 µM
CCN1c2ncccc2C(=O)N(C)c2ccc(-c3cc4cc(OC)ccc4[nH]3)nc21 | WT | - | nucleotide incorporation / radiometric | <1 µM
O=C(CSc1nnc(C(F)F)n1-c1ccc(C2CC2)c2ccccc12)Nc1ccc(C(=O)O)cc1Cl | - | RT-Y188L | nucleotide incorporation / radiometric | >0.1 µM
COc1cc2c(cc1OC)CN(c1nn3c(C)nnc3c3ccccc13)CC2 | 98US_MSC5016 | - | RT activity / fluorescence | 0.44 µM
CC(C)(C#Cc1ccc(NC(=O)CSc2nnnn2-c2cc(C(F)(F)F)ccc2Cl)c(Cl)c1F)C(=O)NCCN1CCCC1 | WT | - | PicoGreen / fluorescence | <1 µM
CCc1ccc(-n2c(Br)nnc2SCC(=O)Nc2ccc(C(=O)N[C@@H](CO)C(=O)OC)cc2Cl)c2ccccc12 | - | RT-Y188L | nucleotide incorporation / radiometric | <0.05 µM
CCc1cc(NCc2nc3c(C)ccc(C)c3o2)c(=O)[nH]c1C | - | RT-Y188C | nucleotide incorporation | 0.2726 µM
CCc1ccc(-n2c(Br)nnc2SCC(=O)Nc2ccc(C(=O)NCC3CCCCC3)cc2Cl)c2ccccc12 | - | - | nucleotide incorporation / radiometric | <0.05 µM
CC(C)c1ccc(-n2nnnc2SCC(=O)Nc2ccc(C#CC(C)(C)C(=O)O)cc2Cl)c(Cl)c1 | WT | - | PicoGreen / fluorescence | <1 µM
COc1cc2[nH]c(C(=O)N3CCN(c4ncccc4NC(C)C)CC3)cc2cc1F | - | - | nucleotide incorporation | <100 µM
Cn1cc(NC(=O)COc2ccc(NC(=O)CSc3nnnn3-c3ccc(C(C)(C)C)cc3Cl)c(Cl)c2)cc1C(=O)O | - | RT-K103 Y181C | PicoGreen / fluorescence | <1 µM
CCN1c2ncc(CCc3ccccc3)cc2C(=O)N(C)c2c1ncc(C)c2C | WT | - | nucleotide incorporation / radiometric | <1 µM
CC(NC(=O)COC(C)(C)C#Cc1ccc(NC(=O)CSc2nnnn2-c2ccc(C(C)(C)C)cc2Cl)c(Cl)c1)C(=O)O | WT | - | PicoGreen / fluorescence | <1 µM
CCNc1cccnc1N1CCN(C(=O)c2cc3ccc(OC)c(C)c3[nH]2)CC1 | - | - | nucleotide incorporation | <100 µM
CCN1c2ncc(CCOc3cccc4c3ccc[n+]4[O-])cc2C(=O)N(C)c2ccc(Cl)nc21 | - | RT-Y181C | nucleotide incorporation / radiometric | 0.022 µM
CN(CC(=O)O)C(=O)c1ccc(NC(=O)CSc2nnc(Br)n2-c2ccc(C3CC3)c3ccccc23)c(Cl)c1 | - | RT-Y188L | nucleotide incorporation / radiometric | >0.1 µM
CCN1c2ncc(CCc3ccnc(C(=O)OC)c3)cc2C(=O)N(C)c2ccc(Cl)nc21 | WT | - | nucleotide incorporation / radiometric | <1 µM
CCc1ccc(-n2c(Br)nnc2SCC(=O)Nc2ccc(C(=O)NCC(=O)OC)cc2Cl)c2ccccc12 | - | RT-Y181C | nucleotide incorporation / radiometric | <0.05 µM
Cc1ccc(-n2nnnc2SCC(=O)Nc2ccc(/C=C/C(=O)O)cc2Cl)c(Cl)c1 | WT | - | PicoGreen / fluorescence | <1 µM
NS(=O)(=O)c1ccc(NC(=O)CSc2nnc(C(F)F)n2-c2ccc(C3CCCC3)c3ccccc23)c(Cl)c1 | - | - | nucleotide incorporation / radiometric | <0.05 µM
CCNc1cccnc1N(C)CCN(C)C(=O)c1cc2ccccc2[nH]1 | - | - | nucleotide incorporation | ~100 µM
CC(C)c1ccc(-n2nnnc2SCC(=O)Nc2ccc(-c3ccc(C(C)(C)C(=O)O)cc3)cc2Cl)c(Cl)c1 | - | RT-K103 Y181C | PicoGreen / fluorescence | <1 µM
COP(=O)(c1cc(C)cc(CCC#N)c1)c1c(C(N)=O)[nH]c2ccc(Cl)cc12 | - | Y181C/K103N | RT activity | 1.614 µM
CN1CCN(C(=O)COC(C)(C)C#Cc2ccc(NC(=O)CSc3nnnn3-c3ccc(C(C)(C)C)cc3Cl)c(Cl)c2)CC1 | WT | - | PicoGreen / fluorescence | <1 µM
CCN1c2ncccc2C(=O)N(C)c2ccc(-c3cc[nH]c3)nc21 | WT | - | nucleotide incorporation / radiometric | <1 µM
CCOC(=O)[C@H](Cc1ccc(O)cc1)NC(=O)c1ccc(NC(=O)CSc2nnc(Br)n2-c2ccc(C3CC3)c3ccccc23)c(Cl)c1 | - | RT-Y188L | nucleotide incorporation / radiometric | 0.05–0.1 µM
CC(C)Nc1cccnc1N1CCN(C(=O)c2cc3cc(OCc4ccccc4)ccc3[nH]2)CC1 | - | - | nucleotide incorporation | <100 µM
Cc1ccc2c(C)ccc(-n3c(Br)nnc3SCC(=O)Nc3ccc(S(N)(=O)=O)cc3Br)c2c1 | - | - | nucleotide incorporation / radiometric | <0.05 µM
CC(C)Nc1cccnc1N(C)CCN(C)C(=O)c1cc2ccccc2[nH]1 | - | - | nucleotide incorporation | <100 µM
CCN1c2ncc(CCc3ccncc3)cc2C(=O)N(C)c2ccc(F)nc21 | WT | - | nucleotide incorporation / radiometric | <1 µM
CC(C)(C)c1ccc(-n2nnnc2SCC(=O)Nc2ccc(NC(=O)Cn3cnnn3)cc2Cl)c(Cl)c1 | WT | - | PicoGreen / fluorescence | <1 µM
CCc1ccc(-n2c(Br)nnc2SCC(=O)Nc2ccc(C(=O)O)cc2Br)c2ccccc12 | - | RT-Y188L | nucleotide incorporation / radiometric | 0.05–0.1 µM
CC(C)(C)c1ccc(-n2nnnc2SCC(=O)Nc2ccc(-c3ccc(OCCN4CC[C@@H](O)C4)cc3)cc2Cl)c(Cl)c1 | - | RT-K103 Y181C | PicoGreen / fluorescence | <1 µM
Cc1ccc(-n2c(SCC(=O)Nc3ccc(S(=O)(=O)NC(C)C(=O)O)cc3Cl)nnc2C(F)F)c2c1CCCC2 | - | RT-Y181C | nucleotide incorporation / radiometric | >0.1 µM
Fc1ccc2c(c1)CN(c1nn3c(C4CC4)nnc3c3ccccc13)CC2 | IIIB | - | RT activity / fluorescence | 0.12 µM
CNC(=O)COC(C)(C)C#Cc1ccc(NC(=O)CSc2nnnn2-c2ccc(C(C)(C)C)cc2Cl)c(Cl)c1 | - | RT-K103 Y181C | PicoGreen / fluorescence | <1 µM
CCN1c2ncccc2C(=O)N(C)c2ccc(-c3cccn3C(C)=O)nc21 | - | RT-Y181C | nucleotide incorporation / radiometric | <1 µM
CN1CCN(CCOC(C)(C)C#Cc2ccc(NC(=O)CSc3nnnn3-c3ccc(C4CC4)cc3Cl)c(Cl)c2)CC1 | WT | - | PicoGreen / fluorescence | <1 µM
NS(=O)(=O)c1ccc(NC(=O)CSc2nnc(Br)n2-c2c(Cl)cc(C3CCC3)c3ccccc23)c(Cl)c1 | - | RT-Y188L | nucleotide incorporation / radiometric | 0.05–0.1 µM
CC(C)(C)c1ccc(-n2nnnc2SCC(=O)Nc2ccc(NC(=O)CCC(=O)O)cc2Cl)c(Cl)c1 | WT | - | PicoGreen / fluorescence | <1 µM
CC(C)c1ccc(-n2c(SCC(=O)Nc3ccc(S(N)(=O)=O)cc3Cl)nnc2C(F)F)c2ccccc12 | - | - | nucleotide incorporation / radiometric | <0.05 µM
COc1ccc(Cl)c(-n2nnnc2SCC(=O)Nc2ccc(C#CC(C)(C)C(=O)O)cc2Cl)c1 | - | RT-K103 Y181C | PicoGreen / fluorescence | <1 µM
CCN1c2ncccc2C(=O)N(C)c2ccc(-c3cc[nH]c3C(C)=O)nc21 | - | RT-Y181C | nucleotide incorporation / radiometric | <1 µM
CC(C)c1ccc(-n2nnnc2SCC(=O)Nc2ccc(-c3ccc(OCCN4CCCC4)cc3)cc2Cl)c(Br)c1 | WT | - | PicoGreen / fluorescence | <1 µM
CCOC(=O)CN(C)C(=O)c1ccc(NC(=O)CSc2nnc(Br)n2-c2ccc(CC)c3ccccc23)c(Cl)c1 | - | RT-Y181C | nucleotide incorporation / radiometric | <0.05 µM

For reference, 4 entries again:

{"smiles": "CCc1cc(NCc2nc3c(C)ccc(C)c3o2)c(=O)[nH]c1C", "mutations": "RT-Y188C", "read by": "nucleotide incorporation", "result": "0.2726 µM"}
{"smiles": "COc1cc2[nH]c(C(=O)N3CCN(c4ncccc4NC(C)C)CC3)cc2cc1F", "read by": "nucleotide incorporation", "result": "<100 µM"}
{"smiles": "CN(C)c1ccc2c(c1)CN(c1nn3c(C4CC4)nnc3c3ccccc13)CC2", "strain or isolate": "IIIB", "read by": "RT activity / fluorescence", "result": "0.06 µM"}
{"smiles": "CCc1ccc(-n2c(C)nnc2SCC(=O)Nc2ccc(S(N)(=O)=O)cc2C)c2ccccc12", "mutations": "RT-Y181C", "read by": "nucleotide incorporation / radiometric", "result": ">0.1 µM"}

ICn is the concentration giving n% inhibition. An empty or dashed field is not shown. Rows are shuffled and stem from different studies.